DMS reactivity of the HIV-1 5' RNA in monomer and dimer

Reference: Ye et al. 2022, doi:10.1038/s41594-022-00746-2.

RNA: 5' end of the HIV-1 NL4-3 genome, made in vitro. Positions 1-437 read:
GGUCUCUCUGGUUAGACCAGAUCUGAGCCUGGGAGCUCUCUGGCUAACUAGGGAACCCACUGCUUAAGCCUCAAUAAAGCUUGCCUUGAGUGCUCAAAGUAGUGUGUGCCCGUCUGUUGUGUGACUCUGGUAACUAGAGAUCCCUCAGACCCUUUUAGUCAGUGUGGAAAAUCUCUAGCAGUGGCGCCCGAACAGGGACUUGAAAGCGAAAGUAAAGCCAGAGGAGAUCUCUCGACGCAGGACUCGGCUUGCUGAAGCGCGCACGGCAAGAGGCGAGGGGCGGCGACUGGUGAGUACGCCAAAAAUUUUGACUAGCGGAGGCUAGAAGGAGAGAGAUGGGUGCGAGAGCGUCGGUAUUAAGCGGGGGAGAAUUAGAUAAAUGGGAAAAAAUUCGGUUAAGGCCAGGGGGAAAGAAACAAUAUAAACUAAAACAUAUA

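Randomly mutated transcripts starting with one, two or three G (1G, 2G, 3G), capped or uncapped, were folded for 30 min at 37 °C. Monomer and dimer bands were cut from native gels after folding in high salt (300 mM KCl, 5 mM MgCl2) or low salt (40 mM KCl, 0.1 mM MgCl2). Gel slices were treated with 170 mM dimethyl sulfate for 15 min at 37 °C and read by mutational profiling against an ethanol control.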

Scale: normalised reactivity, A and C only; low values point to paired or protected bases, higher values to unpaired ones.
One numbering serves 1G, 2G and 3G.
A position is written with its base.

A169 read 1G uncapped low-salt dimer 0.72; 3G capped high-salt monomer 0.76; 1G uncapped high-salt dimer 0.70. With A170 the assay gave 1G uncapped low-salt dimer 0.55; 3G capped high-salt monomer 0.53; 1G uncapped high-salt dimer 0.54. For A171 the result was 1G uncapped low-salt dimer 0.46; 3G capped high-salt monomer 0.44; 1G uncapped high-salt dimer 0.47. C173 gave 1G uncapped low-salt dimer 0.03; 3G capped high-salt monomer 0.02; 1G uncapped high-salt dimer 0.04. C175 gave 1G uncapped low-salt dimer 0.03; 3G capped high-salt monomer 0.02; 1G uncapped high-salt dimer 0.04.

For A177 the result was 1G uncapped low-salt dimer 0.21; 3G capped high-salt monomer 0.22; 1G uncapped high-salt dimer 0.23. With C179 the assay gave 1G uncapped low-salt dimer 0.68; 3G capped high-salt monomer 0.96; 1G uncapped high-salt dimer 0.82. For A180 the result was 1G uncapped low-salt dimer 0.50; 3G capped high-salt monomer 0.64; 1G uncapped high-salt dimer 0.58. With C185 the assay gave 1G uncapped low-salt dimer 0.37; 3G capped high-salt monomer 0.52; 1G uncapped high-salt dimer 0.47. With C187 the assay gave 1G uncapped low-salt dimer 0.04; 3G capped high-salt monomer 0.02; 1G uncapped high-salt dimer 0.04.

C188 gave 1G uncapped low-salt dimer 0.12; 3G capped high-salt monomer 0.06; 1G uncapped high-salt dimer 0.08. With C189 the assay gave 1G uncapped low-salt dimer 0.20; 3G capped high-salt monomer 0.08; 1G uncapped high-salt dimer 0.14. With A191 the assay gave 1G uncapped low-salt dimer 0.36; 3G capped high-salt monomer 0.41; 1G uncapped high-salt dimer 0.40. With A192 the assay gave 1G uncapped low-salt dimer 0.65; 3G capped high-salt monomer 0.87; 1G uncapped high-salt dimer 0.72. C193 gave 1G uncapped low-salt dimer 0.70; 3G capped high-salt monomer 0.95; 1G uncapped high-salt dimer 0.77.

For A194 the result was 1G uncapped low-salt dimer 0.82; 3G capped high-salt monomer 1.14; 1G uncapped high-salt dimer 0.85. With A198 the assay gave 1G uncapped low-salt dimer 0.63; 3G capped high-salt monomer 0.58; 1G uncapped high-salt dimer 0.61. C199 gave 1G uncapped low-salt dimer 0.51; 3G capped high-salt monomer 0.46; 1G uncapped high-salt dimer 0.53. For A203 the result was 1G uncapped low-salt dimer 0.52; 3G capped high-salt monomer 0.52; 1G uncapped high-salt dimer 0.52. A204 gave 1G uncapped low-salt dimer 0.73; 3G capped high-salt monomer 0.70; 1G uncapped high-salt dimer 0.74.

With A205 the assay gave 1G uncapped low-salt dimer 0.34; 3G capped high-salt monomer 0.31; 1G uncapped high-salt dimer 0.36. C207 read 1G uncapped low-salt dimer 0.69; 3G capped high-salt monomer 0.44; 1G uncapped high-salt dimer 0.63. A209 read 1G uncapped low-salt dimer 0.46; 3G capped high-salt monomer 0.46; 1G uncapped high-salt dimer 0.43. With A210 the assay gave 1G uncapped low-salt dimer 0.51; 3G capped high-salt monomer 0.56; 1G uncapped high-salt dimer 0.49. For A211 the result was 1G uncapped low-salt dimer 0.44; 3G capped high-salt monomer 0.42; 1G uncapped high-salt dimer 0.50.

With A214 the assay gave 1G uncapped low-salt dimer 0.31; 3G capped high-salt monomer 0.26; 1G uncapped high-salt dimer 0.31. A215 read 1G uncapped low-salt dimer 0.70; 3G capped high-salt monomer 0.52; 1G uncapped high-salt dimer 0.69. For A216 the result was 1G uncapped low-salt dimer 0.59; 3G capped high-salt monomer 0.61; 1G uncapped high-salt dimer 0.70. C218 gave 1G uncapped low-salt dimer 0.03; 3G capped high-salt monomer 0.02; 1G uncapped high-salt dimer 0.05. C219 read 1G uncapped low-salt dimer 0.03; 3G capped high-salt monomer 0.03; 1G uncapped high-salt dimer 0.05.

4 of these entries, quoted again:

C179 gave 1G uncapped low-salt dimer 0.68; 3G capped high-salt monomer 0.96; 1G uncapped high-salt dimer 0.82.
A192 gave 1G uncapped low-salt dimer 0.65; 3G capped high-salt monomer 0.87; 1G uncapped high-salt dimer 0.72.
C185 gave 1G uncapped low-salt dimer 0.37; 3G capped high-salt monomer 0.52; 1G uncapped high-salt dimer 0.47.
A198 gave 1G uncapped low-salt dimer 0.63; 3G capped high-salt monomer 0.58; 1G uncapped high-salt dimer 0.61.